From patent publication EP4678648A1, “SYNTHESIS METHOD OF ANTIBODY-DRUG CONJUGATES USING PROXIMITY EFFECT-BASED SITE-SELECTIVE ANTIBODY LABELING” (Sogang University Research Business Development Foundation, priority 2023, dated 2024)

System: antibodies with Fc domains (trastuzumab)
Assay: SPR binding affinity of Z-M protein variants and antibody (His capture, CM5 chip)
Conditions: 1:1 (Langmuir) fit

Z-M_K33AzK-PyOx
Ka (SPR association rate): 196600 M⁻¹ s⁻¹
Kd (SPR dissociation rate): 0.0006843 s⁻¹
